The results in this text go back to PubChem BioAssay AID624483 (NMMLSC, 2012).

Only a part is listed here, and it is no random draw. Active and inactive are the calls of the source. Cut-off read from the data, not from the text of the source: active = fluorescence intensity above about 16000; inconclusive = no clear call, values can overlap the other calls; inactive = below that.

The nature of the assay: counter-screen for toxin protease inhibitors: compound fluorescence, primary screen, artefact control for toxin protease inhibitor project, biochemical, multiplex microsphere, HTS (AID 624483). Note: test concentration not given here. The note with it: compound autofluorescence counterscreen, microsphere flow cytometry; stronger effect = higher value.
Regarding `N#CCCN(C(=O)COC(=O)C(O)(c1ccccc1)c1ccccc1)c1ccc(F)cc1`, the fluorescence intensity is active: 63600.

With `O=P1(Nc2ccc(Br)cn2)COc2ccccc2OC1`, the fluorescence intensity was active: 19500.

On to `CCc1nc2c(n1)c1c(non1O)c1c2no[n+]1[O-]`, for which the fluorescence intensity is active: 23000.
